Measurements reported in patent US9204653B2, “5-fluoro pyrimidine derivatives” (DOW AGROSCIENCES LLC, priority 2008, dated 2015).

How the values were obtained:
[1] = system: Mycosphaerella graminicola; Anamorph: Septoria tritici; Bayer Code SEPTTR; assay: Leaf blotch of wheat, foliar fungicide treatment, one day protectant (1DP) or three day curative (3DC); assay type: in vivo, Septoria tritici on wheat plants (variety Yuma)
[2] = system: Cercospora beticola; Bayer Code CERCBE; assay: Leaf spot of sugar beets; assay type: in vivo, Cercospora beticola on sugar beets (variety HH-88); settings: % disease control rating, one day protectant
[3] = system: Venturia inaequalis; Bayer Code VENTIN; assay: Apple scab; assay type: in vivo; settings: % disease control rating, one day protectant
[4] = one day protectant, rating of percent disease control
[5] = three day curative, rating of percent disease control
[6] = one day protectant (1DP), rating of percent disease control
[7] = three day curative (3DC), rating of percent disease control
[8] = one day protectant (1DP), percent disease control rating
[9] = three day curative (3DC), percent disease control rating

Compound | SETTTR 1DP 25 ppm [1, 4] | SEPTTR 1DP 100 ppm [1, 4] | SEPTTR 3DC 25 ppm [1, 5] | SEPTTR 3DC 100 ppm [1, 5] | SETTTR 1DP 25 ppm [1, 6] | SEPTTR 1DP 100 ppm [1, 6] | SEPTTR 3DC 25 ppm [1, 7] | SEPTTR 3DC 100 ppm [1, 7] | further results
CCOP(=O)(Nc1nc(OCc2cccc(C#N)c2)ncc1F)OCC | D (0-25) | D (0-25) | D (0-25) | B (51-75) |  |  |  |  | CERCBE 1 DP 25 ppm ([2]; 25 ppm): C (26-50); CERCBE 1 DP 75 ppm ([2]; 75 ppm): C (26-50); VENTIN 1 DP 25 ppm ([3]; 25 ppm): D (0-25); VENTIN 1 DP 75 ppm ([3]; 75 ppm): D (0-25)
CCOP(=O)(Nc1nc(OCc2ccc(C)cc2)ncc1F)OCC |  |  |  |  | D (0-25) | D (0-25) | D (0-25) | D (0-25) | 
CCOP(=O)(Nc1nc(OCc2ccc(OC)c(F)c2)ncc1F)OCC |  |  |  |  | D (0-25) | D (0-25) | D (0-25) | C (26-50) | 
CCOP(=O)(Nc1nc(OCc2ccc(F)cc2)ncc1F)OCC |  |  |  |  |  |  |  |  | SETTTR 1DP 25 ppm [1, 8]: C (26-50); SEPTTR 1DP 100 ppm [1, 8]: B (51-75); SEPTTR 3DC 25 ppm [1, 9]: D (0-25); SEPTTR 3DC 100 ppm [1, 9]: D (0-25)
CCOP(=O)(Nc1nc(OCc2ccccc2)ncc1F)OCC |  |  |  |  |  |  |  |  | SETTTR 1DP 25 ppm [1, 8]: D (0-25); SEPTTR 1DP 100 ppm [1, 8]: C (26-50); SEPTTR 3DC 25 ppm [1, 9]: C (26-50); SEPTTR 3DC 100 ppm [1, 9]: A (76-100)
CCOP(=O)(Nc1nc(OCc2cccc(F)c2)ncc1F)OCC | D (0-25) | B (51-75) | D (0-25) | B (51-75) |  |  |  |  | 
CCOP(=O)(Nc1nc(OCc2cccs2)ncc1F)OCC |  |  |  |  | C (26-50) | A (76-100) | B (51-75) | A (76-100) | 
CCOP(=O)(Nc1nc(OCc2ccccc2OC)ncc1F)OCC |  |  |  |  | D (0-25) | D (0-25) | D (0-25) | D (0-25) | 
CCOP(=O)(Nc1nc(OC(C)c2ccc(F)cc2)ncc1F)OCC (stereo not shown) | C (26-50) | B (51-75) | C (26-50) | A (76-100) |  |  |  |  | 
